No dose or concentration is given here for some results.
Tested on: VZV-BAC-Luc strain (wild type)
Format: cell-based, varicella zoster virus
Conditions: VZV in cultured cells; listed as compound (5)

Question: Which “potency relative to acyclovir and cidofovir” value does the source give for “[(Z)-2-[(2,6-diaminopyrimidin-4-yl)oxymethyl]-4-[3-hexadecoxypropoxy (isopropoxycarbonyloxymethoxy)phosphoryl]but-2′-enyl]acetate [Compound (5)]” here?
Answer: ~100 times

— patent US11603380B2 (Centre national de la recherche scientifique, priority 2018, dated 2023)
